Results reported in the NIST ThermoML archive (doi:10.1016/j.jct.2018.07.024).
Numbers after ± are expanded uncertainties.

Test: activity coefficient (dimensionless); xn = mol fraction of the nth substance listed
Conditions: 101.33 kPa, Liquid, Chromatography, x1 = 0

SMILES	activity coefficient (318.15 K)	activity coefficient (328.15 K)	activity coefficient (338.15 K)	activity coefficient (348.15 K)	activity coefficient (358.15 K)	activity coefficient (368.15 K)
COC(C)(C)C [2-methoxy-2-methylpropane] + CCCC[N+]1(C)CCCC1.O=S(=O)(F)[N-]S(=O)(=O)F	3.5 ± 0.24	3.72 ± 0.25	3.93 ± 0.27	4.15 ± 0.28	4.35 ± 0.3	4.56 ± 0.31
CC(C)CO [2-methyl-1-propanol] + CCCCCCCC[N+](CC)(CC)CC.O=S(=O)(F)[N-]S(=O)(=O)F	2.46 ± 0.17	2.31 ± 0.16	2.18 ± 0.15	2.06 ± 0.14	1.95 ± 0.13	1.86 ± 0.13
CC(C)CO [2-methyl-1-propanol] + CCCC[N+]1(C)CCCC1.O=S(=O)(F)[N-]S(=O)(=O)F	3.54 ± 0.24	3.3 ± 0.22	3.09 ± 0.21	2.9 ± 0.2	2.74 ± 0.19	2.6 ± 0.18
CC(C)(C)O [2-methylpropan-2-ol] + CCCCCCCC[N+](CC)(CC)CC.O=S(=O)(F)[N-]S(=O)(=O)F	1.88 ± 0.13	1.82 ± 0.12	1.76 ± 0.12	1.71 ± 0.11	1.66 ± 0.11	1.62 ± 0.11
CC(C)(C)O [2-methylpropan-2-ol] + CCCC[N+]1(C)CCCC1.O=S(=O)(F)[N-]S(=O)(=O)F	2.57 ± 0.17	2.46 ± 0.17	2.37 ± 0.16	2.27 ± 0.15	2.2 ± 0.15	2.12 ± 0.14
CCC(C)CC [3-methylpentane] + CCCCCCCC[N+](CC)(CC)CC.O=S(=O)(F)[N-]S(=O)(=O)F	8.51 ± 0.58	8.45 ± 0.58	8.39 ± 0.57	8.33 ± 0.57	8.3 ± 0.57	8.25 ± 0.56
CCC(C)CC [3-methylpentane] + CCCC[N+]1(C)CCCC1.O=S(=O)(F)[N-]S(=O)(=O)F	25.5 ± 1.7	24.9 ± 1.7	24.3 ± 1.7	23.8 ± 1.6	23.3 ± 1.6	22.8 ± 1.6
C=C(C)c1ccccc1 [(1-methylethenyl)benzene] + CCCCCCCC[N+](CC)(CC)CC.O=S(=O)(F)[N-]S(=O)(=O)F	0.868 ± 0.055	0.955 ± 0.06	1.04 ± 0.07	1.14 ± 0.07	1.23 ± 0.08	1.33 ± 0.09
C=C(C)c1ccccc1 [(1-methylethenyl)benzene] + CCCC[N+]1(C)CCCC1.O=S(=O)(F)[N-]S(=O)(=O)F	1.78 ± 0.12	1.93 ± 0.13	2.09 ± 0.14	2.25 ± 0.15	2.42 ± 0.16	2.59 ± 0.18
CC(C)=O [acetone] + CCCCCCCC[N+](CC)(CC)CC.O=S(=O)(F)[N-]S(=O)(=O)F	0.493 ± 0.038	0.521 ± 0.039	0.55 ± 0.04	0.578 ± 0.041	0.604 ± 0.042	0.631 ± 0.044
CC(C)=O [acetone] + CCCC[N+]1(C)CCCC1.O=S(=O)(F)[N-]S(=O)(=O)F	0.601 ± 0.042	0.639 ± 0.044	0.677 ± 0.046	0.715 ± 0.048	0.754 ± 0.05	0.794 ± 0.052
CC#N [acetonitrile] + CCCCCCCC[N+](CC)(CC)CC.O=S(=O)(F)[N-]S(=O)(=O)F	0.535 ± 0.039	0.554 ± 0.04	0.572 ± 0.041	0.59 ± 0.042	0.607 ± 0.042	0.624 ± 0.043
CC#N [acetonitrile] + CCCC[N+]1(C)CCCC1.O=S(=O)(F)[N-]S(=O)(=O)F	0.579 ± 0.041	0.601 ± 0.042	0.623 ± 0.043	0.645 ± 0.044	0.667 ± 0.045	0.688 ± 0.046
c1ccccc1 [benzene] + CCCCCCCC[N+](CC)(CC)CC.O=S(=O)(F)[N-]S(=O)(=O)F	0.634 ± 0.044	0.676 ± 0.046	0.718 ± 0.048	0.761 ± 0.05	0.804 ± 0.052	0.847 ± 0.054
c1ccccc1 [benzene] + CCCC[N+]1(C)CCCC1.O=S(=O)(F)[N-]S(=O)(=O)F	1.07 ± 0.07	1.14 ± 0.07	1.21 ± 0.08	1.28 ± 0.08	1.35 ± 0.09	1.42 ± 0.09
CCCCO [butan-1-ol] + CCCCCCCC[N+](CC)(CC)CC.O=S(=O)(F)[N-]S(=O)(=O)F	2.51 ± 0.17	2.37 ± 0.16	2.24 ± 0.15	2.12 ± 0.14	2.02 ± 0.14	1.93 ± 0.13
CCCCO [butan-1-ol] + CCCC[N+]1(C)CCCC1.O=S(=O)(F)[N-]S(=O)(=O)F	3.63 ± 0.25	3.4 ± 0.23	3.2 ± 0.22	3.02 ± 0.21	2.87 ± 0.2	2.73 ± 0.19

SMILES	activity coefficient (318.15 K)	activity coefficient (328.15 K)	activity coefficient (338.15 K)	activity coefficient (348.15 K)	activity coefficient (358.15 K)	activity coefficient (368.15 K)
CCC(C)O (stereo not drawn) [butan-2-ol] + CCCCCCCC[N+](CC)(CC)CC.O=S(=O)(F)[N-]S(=O)(=O)F	2.16 ± 0.15	2.05 ± 0.14	1.96 ± 0.13	1.88 ± 0.13	1.81 ± 0.12	1.74 ± 0.12
CCC(C)O (stereo not drawn) [butan-2-ol] + CCCC[N+]1(C)CCCC1.O=S(=O)(F)[N-]S(=O)(=O)F	3.05 ± 0.21	2.89 ± 0.2	2.74 ± 0.19	2.62 ± 0.18	2.51 ± 0.17	2.41 ± 0.16
CCCC=O [butanal] + CCCCCCCC[N+](CC)(CC)CC.O=S(=O)(F)[N-]S(=O)(=O)F	0.663 ± 0.045	0.699 ± 0.047	0.738 ± 0.049	0.776 ± 0.051	0.815 ± 0.053	0.851 ± 0.055
CCCC=O [butanal] + CCCC[N+]1(C)CCCC1.O=S(=O)(F)[N-]S(=O)(=O)F	0.972 ± 0.061	1.03 ± 0.06	1.09 ± 0.07	1.15 ± 0.07	1.2 ± 0.08	1.27 ± 0.08
C1CCCCCC1 [cycloheptane] + CCCCCCCC[N+](CC)(CC)CC.O=S(=O)(F)[N-]S(=O)(=O)F	6.11 ± 0.42	6.05 ± 0.41	6 ± 0.41	5.93 ± 0.4	5.87 ± 0.4	5.81 ± 0.4
C1CCCCCC1 [cycloheptane] + CCCC[N+]1(C)CCCC1.O=S(=O)(F)[N-]S(=O)(=O)F	17.3 ± 1.2	16.8 ± 1.1	16.3 ± 1.1	16 ± 1.1	15.6 ± 1.1	15.3 ± 1
C1CCCCC1 [cyclohexane] + CCCCCCCC[N+](CC)(CC)CC.O=S(=O)(F)[N-]S(=O)(=O)F	5.28 ± 0.36	5.23 ± 0.36	5.16 ± 0.35	5.1 ± 0.35	5.07 ± 0.35	5.01 ± 0.34
C1CCCCC1 [cyclohexane] + CCCC[N+]1(C)CCCC1.O=S(=O)(F)[N-]S(=O)(=O)F	13.8 ± 0.9	13.5 ± 0.9	13.2 ± 0.9	13 ± 0.9	12.8 ± 0.9	12.5 ± 0.9
C1=CCCCC1 [cyclohexene] + CCCCCCCC[N+](CC)(CC)CC.O=S(=O)(F)[N-]S(=O)(=O)F	2.97 ± 0.2	3.03 ± 0.21	3.09 ± 0.21	3.14 ± 0.21	3.19 ± 0.22	3.25 ± 0.22
C1=CCCCC1 [cyclohexene] + CCCC[N+]1(C)CCCC1.O=S(=O)(F)[N-]S(=O)(=O)F	6.46 ± 0.44	6.55 ± 0.45	6.62 ± 0.45	6.72 ± 0.46	6.81 ± 0.46	6.87 ± 0.47
C1CCCCCCC1 [cyclooctane] + CCCCCCCC[N+](CC)(CC)CC.O=S(=O)(F)[N-]S(=O)(=O)F	7.38 ± 0.5	7.25 ± 0.49	7.14 ± 0.49	7.03 ± 0.48	6.93 ± 0.47	6.83 ± 0.47
C1CCCCCCC1 [cyclooctane] + CCCC[N+]1(C)CCCC1.O=S(=O)(F)[N-]S(=O)(=O)F	22.7 ± 1.6	21.8 ± 1.5	21 ± 1.4	20.3 ± 1.4	19.7 ± 1.3	19.2 ± 1.3
C1CCCC1 [cyclopentane] + CCCCCCCC[N+](CC)(CC)CC.O=S(=O)(F)[N-]S(=O)(=O)F	4.01 ± 0.27	4 ± 0.27	4.01 ± 0.27	4 ± 0.27	4 ± 0.27	3.99 ± 0.27
C1CCCC1 [cyclopentane] + CCCC[N+]1(C)CCCC1.O=S(=O)(F)[N-]S(=O)(=O)F	9.68 ± 0.66	9.53 ± 0.65	9.39 ± 0.64	9.28 ± 0.63	9.17 ± 0.63	9.05 ± 0.62
CCCCCCCCCC [decane] + CCCCCCCC[N+](CC)(CC)CC.O=S(=O)(F)[N-]S(=O)(=O)F	24.2 ± 1.7	23.5 ± 1.6	22.9 ± 1.6	22.4 ± 1.5	21.9 ± 1.5	21.4 ± 1.5
CCCCCCCCCC [decane] + CCCC[N+]1(C)CCCC1.O=S(=O)(F)[N-]S(=O)(=O)F	107 ± 7	101 ± 7	96.2 ± 6.6	92.1 ± 6.3	88.1 ± 6	84.8 ± 5.8
